Measured values from several laboratories, pooled; numbers as filed in NIAID ChemDB.

Common to all: tests in culture; agent: HIV-1; method: cytopathic effect / MTT; endpoint: fold resistance

Lines come from different laboratories, so protocols vary.

CCc1c(C)[nH]c(=O)c(N)c1Sc1cc(C)cc(C)c1 ; strain: N119(RT-Y181C) ; cells: CEM + CEM-SS ; mutations: RT-Y181C ; result: 26.4
COCc1cccc(CN2CCN([C@H](C(=O)N[C@@H](Cc3ccccc3)[C@H](O)CN(CC(C)C)S(=O)(=O)c3ccc(/C=N/O)cc3)C(C)(C)C)C2=O)n1 ; strain: A17 (LPV-resistant) ; cells: MT-4 ; mutations: PR-L10F V32I M46I I47V Q68E I84V ; result: 1.25
CC(C)CN(C[C@@H](O)[C@H](Cc1ccccc1)NC(=O)OCc1cnco1)S(=O)(=O)c1ccc2nc(N)oc2c1 ; strain: LAI ; cells: MT-4 ; mutations: PR-L010F M046I M071V I084V ; result: 13
CC(C)CN(C[C@@H](O)[C@H](Cc1ccccc1)NC(=O)O[C@H]1CO[C@H]2OCC[C@H]21)S(=O)(=O)c1ccc(-c2csc(N)n2)cc1 ; cells: MT-4 ; mutations: PR-L010F M046I M071V I084V ; result: 91
CCc1c(Cc2cc(Cl)cc(Cl)c2)n(COCC=C(C)C)c(=O)[nH]c1=O ; strain: NNRTI-resistant (RT Y181C) N119 ; cells: MT-4 ; mutations: RT-Y181C ; result: >200
N#Cc1cc2[nH]c3ccccc3c2n(-c2ccc([N+](=O)[O-])cc2)c1=O ; strain: G ; cells: MT-4 ; mutations: RT-V106A F227L ; result: 2
CC(C)CN(C[C@@H](O)[C@H](Cc1ccccc1)NC(=O)O[C@H]1CCOC1)S(=O)(=O)c1ccc2nc(N)oc2c1 ; strain: LAI ; cells: MT-4 ; mutations: PR-L010F M046I M071V I084V ; result: 21
Cc1[nH]c(=S)n(Nc2cccc(F)c2)c1-c1ccccc1 ; strain: SO561945 (RT K103N Y181C) ; cells: MT-4 ; mutations: RT-K103N Y181C ; result: ≤2.35
CSCSc1nc(C(C)c2c(F)cccc2F)cc(=O)[nH]1 ; strain: IIIB ; cells: MT-4 ; mutations: RT-Y181C ; result: 36.25
CC(=O)OCC1=C[C@@H]2C(=O)[C@]3(C=C(C)[C@H](OC(C)=O)[C@@]3(O)[C@@H]1OC(C)=O)[C@H](C)C[C@@H]1[C@H]2C1(C)C ; strain: HE ; cells: MT-4 ; mutations: Nevirapine resistant ; result: 1.31
CCc1[nH]c(=S)n(Nc2cccc(Cl)c2)c1-c1ccccc1 ; strain: SO561945 (RT K103N Y181C) ; cells: MT-4 ; mutations: RT-K103N Y181C ; result: <1
Cc1nc(-c2ccc(S(=O)(=O)N(CC(C)C)C[C@@H](O)[C@H](Cc3ccccc3)NC(=O)O[C@H]3CO[C@H]4OCC[C@H]43)cc2)co1 ; cells: MT-4 ; mutations: PR-L010F M046I M071V I084V ; result: 42
Cc1ccc(CN2CCN([C@H](C(=O)N[C@@H](Cc3ccccc3)[C@H](O)CN(CC(C)C)S(=O)(=O)c3ccc(/C=N/O)cc3)C(C)(C)C)C2=O)cn1 ; strain: A17 (LPV-resistant) ; cells: MT-4 ; mutations: PR-L10F V32I M46I I47V Q68E I84V ; result: 2
CCc1c(Cc2cc(Cl)cc(Cl)c2)n(COC/C(C)=C/c2ccccc2)c(=O)[nH]c1=O ; strain: NNRTI-resistant (RT Y181C) N119 ; cells: MT-4 ; mutations: RT-Y181C ; result: 66
CNc1nc(-c2ccc(S(=O)(=O)N(CC(C)C)C[C@@H](O)[C@H](Cc3ccccc3)NC(=O)O[C@H]3CO[C@H]4OCC[C@H]43)cc2)cs1 ; cells: MT-4 ; mutations: PR-L010F M046I M071V I084V ; result: 42
CCc1c(C)[nH]c(=O)c(Br)c1Oc1cc(C)cc(C)c1 ; cells: MT-4 ; mutations: RT-K103N ; result: 20
C#CCOCn1c(Cc2cc(Cl)cc(Cl)c2)c(CC)c(=O)[nH]c1=O ; strain: NNRTI-resistant (RT K103N Y181C) A17 ; cells: MT-4 ; mutations: RT-K103N Y181C ; result: 250
CCc1c(C)[nH]c(=O)c(SCCC(N)=O)c1Oc1cc(C)cc(C)c1 ; cells: MT-4 ; mutations: RT-Y181C ; result: 64
CCC(C)[C@@H](C(=O)N[C@@H](Cc1ccccc1)[C@H](O)CN(CC(C)C)S(=O)(=O)c1ccc(/C=N/O)cc1)N1CC(=O)N(Cc2cccnc2)C1=O ; strain: A17 (LPV-resistant) ; cells: MT-4 ; mutations: PR-L10F V32I M46I I47V Q68E I84V ; result: 0.25
CCc1c(C)[nH]c(=O)c(I)c1Oc1cc(C)cc(C)c1 ; cells: MT-4 ; mutations: RT-K103N ; result: 3
CC(C)CN(C[C@@H](O)[C@H](Cc1ccccc1)NC(=O)O[C@H]1CO[C@H]2OCC[C@H]21)S(=O)(=O)c1ccc2c(c1)/C(=C/c1ccc(-c3ccccn3)cc1)C(=O)N2 ; strain: F ; cells: MT-4 ; mutations: PR-L10F M46I M71V I84V ; result: 6.3
Cc1cc(C)c(S(=O)(=O)c2nc(Nc3ccc(C#N)cc3)c(=O)n(C)c2C)c(C)c1 ; cells: MT-4 ; mutations: RT-Y188L ; result: 399
Cc1ncn(Nc2ccccc2)c1-c1ccccc1 ; strain: SO561945 (RT K103N Y181C) ; cells: MT-4 ; mutations: RT-K103N Y181C ; result: <2.49
CCOCn1c(Cc2cc(Cl)cc(Cl)c2)c(CC)c(=O)[nH]c1=O ; strain: NNRTI-resistant (RT Y181C) N119 ; cells: MT-4 ; mutations: RT-Y181C ; result: >250
C=C(c1cc(C)cc(C)c1)c1c(CC)c(=O)[nH]c(=O)n1COCC ; strain: IIIB ; cells: MT-4 ; mutations: RT-Y181C ; result: 485.7
Cc1ccc(Oc2cn(C)c(=O)c(Nc3ccc(F)cc3)n2)c(C)c1 ; cells: MT-4 ; mutations: RT-Y188L ; result: >7.95
C=CCOCn1c(C(=C)c2cc(C)cc(C)c2)c(CC)c(=O)[nH]c1=O ; strain: IIIB ; cells: MT-4 ; mutations: RT-K103N Y181C ; result: 3330
CCC(C)[C@@H](C(=O)N[C@@H](Cc1ccccc1)[C@H](O)CN(CC(C)C)S(=O)(=O)c1ccc(/C=N/O)cc1)N1CCN(Cc2c(C)ccnc2C)C1=O ; strain: A17 (LPV-resistant) ; cells: MT-4 ; mutations: PR-L10F V32I M46I I47V Q68E I84V ; result: 2
CNc1nc2ccc(S(=O)(=O)N(CC(C)C)C[C@@H](O)[C@H](Cc3ccccc3)NC(=O)O[C@H]3CCOC3)cc2o1 ; strain: LAI ; cells: MT-4 ; mutations: PR-L010F M046I M071V I084V ; result: 115
Cc1cc(C)cc(S(=O)(=O)c2c(C(=O)NNCCO)[nH]c3ccc(Cl)cc23)c1 ; cells: MT-4 ; mutations: RT-K103N Y181C ; result: 10000
CCc1c(Cc2cc(Cl)cc(Cl)c2)n(COC/C=C/c2ccccc2)c(=O)[nH]c1=O ; strain: NNRTI-resistant (RT K103N Y181C) A17 ; cells: MT-4 ; mutations: RT-K103N Y181C ; result: >250
CCC(C)[C@@H](C(=O)N[C@@H](Cc1ccccc1)[C@H](O)CN(CC(C)C)S(=O)(=O)c1ccc(/C=N/O)cc1)N1CCN(Cc2cccc(COC)n2)C1=O ; strain: A17 (LPV-resistant) ; cells: MT-4 ; mutations: PR-L10F V32I M46I I47V Q68E I84V ; result: 1
CSCSc1nc(Cc2c(F)cccc2F)cc(=O)[nH]1 ; strain: IIIB ; cells: MT-4 ; mutations: RT-K103N Y181C ; result: >125
Cc1[nH]c(=S)n(Nc2ccccc2Cl)c1-c1ccccc1 ; strain: SO561945 (RT K103N Y181C) ; cells: MT-4 ; mutations: RT-K103N Y181C ; result: <6.95
Cn1c2ccccc2c2c1cc(C#N)c(=O)n2-c1ccc([N+](=O)[O-])cc1 ; strain: B ; cells: MT-4 ; mutations: RT-K103N ; result: 1
CCc1[nH]c(=S)n(Nc2cccc(C)c2)c1-c1ccccc1 ; strain: SO561945 (RT K103N Y181C) ; cells: MT-4 ; mutations: RT-K103N Y181C ; result: ≤4.18
CCC(C)[C@@H](C(=O)N[C@@H](Cc1ccccc1)[C@H](O)CN(CC(C)C)S(=O)(=O)c1ccc(/C=N/O)cc1)N1CCN(Cc2ccc(OC)nc2)C1=O ; strain: A17 (LPV-resistant) ; cells: MT-4 ; mutations: PR-L10F V32I M46I I47V Q68E I84V ; result: 1

Fold resistance: result on the changed form divided by that on wild type.